Results reported in publication PMC8174488, “4-Arylthiosemicarbazide derivatives as a new class of tyrosinase inhibitors and anti-Toxoplasma gondii agents” (Journal of Enzyme Inhibition and Medicinal Chemistry, 2021).

test system: T. gondii RH strain; assay: Antiparasitic assay: T. gondii RH proliferation in Hs27 cells, [3H]uracil incorporation; format: cell-based, Toxoplasma gondii; conditions: ratio of CC30 (L929) to IC50Tg

| SMILES | SR (selectivity ratio) |
| --- | --- |
| Cc1nc[nH]c1C(=O)NNC(=S)Nc1cccc([N+](=O)[O-])c1 [Compound 1a] | 9.56 |
| Cc1nc[nH]c1C(=O)NNC(=S)Nc1ccc([N+](=O)[O-])cc1 [Compound 2a] | 10.12 |
| Cc1nc[nH]c1C(=O)NNC(=S)Nc1ccccc1Cl [Compound 3a] | 4.02 |
| Cc1nc[nH]c1C(=O)NNC(=S)Nc1ccccc1Br [Compound 4a] | 7.43 |
| Cc1nc[nH]c1C(=O)NNC(=S)Nc1ccccc1I [Compound 5a] | 5.00 |
| Cc1nc[nH]c1C(=O)NNC(=S)Nc1cccc(I)c1 [Compound 6a] | 8.31 |
| COc1ccccc1NC(=S)NNC(=O)c1[nH]cnc1C [Compound 7a] | 4.17 |
| Cc1ccc(NC(=S)NNC(=O)c2[nH]cnc2C)cc1 [Compound 8a] | 1.82 |
| Cc1nc[nH]c1C(=O)NNC(=S)Nc1cc(F)ccc1F [Compound 9a] | 2.95 |

test system: Toxoplasma gondii; assay: not given; conditions: ratio of CC50 to IC50; cited from earlier work

| SMILES | SR (selectivity ratio) |
| --- | --- |
| COc1cc(Cc2cnc(N)nc2N)cc(OC)c1OC [Trimethoprim (TRI), Trimethoprim, reference compound] | > 1.20 |
| Nc1ccc(S(=O)(=O)Nc2ncccn2)cc1 [sulfadiazine] | < 0.92 |
